Pooled drug test results. Numbers come from NIAID ChemDB, via PubChem.

Common to all: whole-cell or culture tests; organism: HIV-1; cells: PBMC; endpoint: EC50

Rows are shuffled and stem from different studies.

structure | strain or isolate | mutations | read by | setting | result
CC(C)(C)NC(=O)[C@@H]1CSCN1C(=O)[C@@H](O)[C@H](Cc1ccccc1)NC(=O)[C@H](CC(N)=O)NC(=O)COc1cccc2ccccc12 | Clinical isolates | - | p24 | - | 0.14 µM
CC(C)(C)NC(=O)[C@@H]1CN(Cc2cccnc2)CCN1C[C@@H](O)C[C@@H](Cc1ccccc1)C(=O)N[C@H]1c2ccccc2C[C@H]1O | Clinical isolate | PR-L10I V11I T12E I15V L19I R41K M46L L63 A71T V82A L90M | p24 | - | 0.21 µM
CCCN(C(=O)OCc1ccccc1)C1CCN(CC[C@](C)(CN(C)S(=O)(=O)c2ccccc2)c2ccccc2)CC1 | YU-2 (M-tropic) | - | p24 | - | <0.06 µM
Cc1cn([C@H]2C[C@H](N=[N+]=[N-])[C@@H](CO)O2)c(=O)[nH]c1=O | 3TC-resistant (RT M184V) | RT-M184V | RT activity | - | <0.003 µM
Cc1cn([C@H]2C[C@H](N=[N+]=[N-])[C@@H](CO)O2)c(=O)nc1N | - | - | - | - | 0.15 µM
CCCN(C(=O)OCc1ccc([N+](=O)[O-])cc1)C1CCN(CC[C@](CO)(CN(C)S(=O)(=O)c2ccccc2)c2ccccc2)CC1 | YU-2 (M-tropic) | - | p24 | - | <0.1 µM
COC(=O)[C@H](C)NP(=O)(OC[C@H]1O[C@@H](N2C(=O)NC(=O)C(C)(Br)C2OC)C[C@@H]1N=[N+]=[N-])Oc1ccc(OC)cc1 | RTMF(RT-T215Y) | RT-T215Y | RT activity | - | 0.09 µM
CSC[C@H](NC(=O)COc1cccc2ccccc12)C(=O)N[C@@H](Cc1ccccc1)[C@H](O)C(=O)N1CSC(C)(C)[C@H]1C(=O)NC(C)(C)C | Clinical isolates | - | p24 | - | 0.03 µM
CCCCCCCCCCCCCCCCCCCCCCOCC(C)(COCCCCCCCCCCCCCCCCCCCCCC)CO[C@]1(C(=O)O)C[C@H](OS(=O)(=O)O)[C@@H](NC(C)=O)[C@H]([C@H](OS(=O)(=O)O)[C@@H](COS(=O)(=O)O)OS(=O)(=O)O)O1 | 10001 Clinical isolate | - | p24 | - | 40 µM
Cc1cn([C@H]2C[C@H](N=[N+]=[N-])[C@@H](CO)O2)c(=O)[nH]c1=O | BaL | - | p24 | - | <0.01 µM
CC(C)CN(C[C@@H](O)[C@H](Cc1ccccc1)NC(=O)O[C@H]1CCOC1)S(=O)(=O)c1ccc(N)cc1 | Clinical isolate | PR-L10I V11I T12E I15V L19I R41K M46L L63 A71T V82A L90M | p24 | - | 0.31 µM
CC(C)OC(=O)OCOP(=O)(CO[C@H](C)Cn1cnc2c(N)ncnc21)OCOC(=O)OC(C)C | IIIB | - | XTT / p24 | 7 d | 0.005 µM
CO[P@](=O)(c1cc(C)cc(/C=C/C#N)c1)c1c(C(N)=O)[nH]c2ccc(Cl)cc12 | - | K103N/Y181C | - | - | 0.0088 µM
Cc1ccnc(C)c1C(=O)N1CCC(C)(N2CCN([C@@H](C)c3ccc(C(F)(F)F)cc3)[C@@H](C)C2)CC1 | BAL R5 | - | p24 / ELISA / antigen | - | 0.005 µM
Nc1ccn([C@@H]2S[C@H](CO)C=C2F)c(=O)n1 | 3TC-resistant (RT M184V) | RT-M184V | - | - | <125 µM
O=c1[nH]cnc2c1ncn2[C@H]1CC[C@@H](CO)O1 | HXB2D (RT-L74V) | RT-L74V | p24 / ELISA | - | 29 µM
Cc1cn([C@H]2C[C@H](N=[N+]=[N-])[C@@H](CO)O2)c(=O)[nH]c1=O | - | - | - | - | 0.004 µM
CCN(C(=O)OCc1ccc([N+](=O)[O-])cc1)C1CCN(CC[C@](C)(CN(C)S(=O)(=O)c2ccccc2)c2ccccc2)CC1 | YU-2 (M-tropic) | - | p24 | - | <0.1 µM
CN(C[C@@H](CCN1CCC2(CC1)CS(=O)(=O)c1ccccc12)c1cccc(Cl)c1)S(=O)(=O)c1ccccc1 | M-tropic YU-2 | - | p24 / antigen | - | <3 µM
C=CCN(C(=O)OCc1ccc([N+](=O)[O-])cc1)C1CCN(CCC(CO)(CN(C)S(=O)(=O)c2ccccc2)c2ccccc2)CC1 | YU-2 (M-tropic) | - | p24 | - | <0.008 µM
C[C@H]1/C=C/[C@@]2(C)CC[C@@H](C(C)(C)O)[C@@H]2[C@@H](O)C[C@](C)(O)/C=C/C1 | 95BRSP007 R5X4 | - | p24 | - | <25 µM
C#CCN(C(=O)OCc1ccccc1)C1CCN(CCC(C)(CN(C)S(=O)(=O)c2ccccc2)c2ccccc2)CC1 | YU-2 (M-tropic) | - | p24 | - | <1.5 µM
CCN(c1ncccc1NC(C)(C)C)C1CCN(C(=O)c2cc3cc(NS(C)(=O)=O)ccc3[nH]2)CC1 | Isolate 461 | - | p24 | - | <0.03 µM
CN(C[C@@H](CCN1CCC2(CC1)CS(=O)c1ccccc12)c1cccc(Cl)c1)S(=O)(=O)c1ccccc1 | M-tropic YU-2 | - | p24 / antigen | - | <1.5 µM
Cc1cn([C@H]2C[C@H](N=[N+]=[N-])[C@@H](CO)O2)c(=O)[nH]c1=O | 7932 CLADE B CLADE B | - | p24 | - | 0.002 µM
O=c1[nH]c(=O)n([C@H]2C[C@H](O)[C@@H](CO)O2)cc1C12B3B4B5B6B(B3B1B42)B1B5C61 | - | - | cytopathic effect / MTT | - | 73.2 µM
Nc1ccn([C@@H]2CO[C@H](CO)O2)c(=O)n1 | - | - | - | - | 0.002 µM
Nc1nc(=O)n([C@@H]2C=C(F)[C@H](CO)S2)cc1F | xxBRU WT | - | RT activity | - | <0.35 µM
CCCCCCCCCCCCCCCCCCCCCCOC[C@H](CO[C@]1(C(=O)O)C[C@H](OS(=O)(=O)O)[C@@H](NC(C)=O)[C@H]([C@H](OS(=O)(=O)O)[C@@H](COS(=O)(=O)O)OS(=O)(=O)O)O1)OCCCCCCCCCCCCCCCCCCCCCC | 9446 Clinical isolate | - | p24 | - | 10 µM
CCN(C(=O)OCc1ccccc1)C1CCN(CC[C@](C)(CN(C)S(=O)(=O)c2ccccc2)c2ccccc2)CC1 | YU-2 (M-tropic) | - | p24 | - | <0.5 µM
CC1(C)CC[C@]2(C(=O)O)CC[C@]3(C)C(=CC[C@@H]4[C@@]5(C)CC[C@H](O[C@@H]6OC[C@@H](O)[C@H](OC7O[C@H](CO)[C@H](O)[C@H](O)[C@H]7O)[C@H]6O)C(C)(C)[C@@H]5CC[C@]43C)[C@@H]2C1 | BaL | - | p24 / ELISA | - | 1.25 µg/mL
CC(C)c1nc(CN(C)C(=O)N[C@H](C(=O)N[C@@H](Cc2ccccc2)C[C@H](O)[C@H](Cc2ccccc2)NC(=O)OCc2cncs2)C(C)C)cs1 | Clinical isolate | PR-L10I I15V K20R M36I M46L I54V K55R I62V L63P K70Q V82A L89M | p24 | - | >1 µM

For reference, 4 entries again:

| structure | strain or isolate | mutations | read by | setting | result |
|---|---|---|---|---|---|
| CCCCCCCCCCCCCCCCCCCCCCOCC(C)(COCCCCCCCCCCCCCCCCCCCCCC)CO[C@]1(C(=O)O)C[C@H](OS(=O)(=O)O)[C@@H](NC(C)=O)[C@H]([C@H](OS(=O)(=O)O)[C@@H](COS(=O)(=O)O)OS(=O)(=O)O)O1 | 10001 Clinical isolate | - | p24 | - | 40 µM |
| CCN(C(=O)OCc1ccccc1)C1CCN(CC[C@](C)(CN(C)S(=O)(=O)c2ccccc2)c2ccccc2)CC1 | YU-2 (M-tropic) | - | p24 | - | <0.5 µM |
| Cc1cn([C@H]2C[C@H](N=[N+]=[N-])[C@@H](CO)O2)c(=O)nc1N | - | - | - | - | 0.15 µM |
| CC(C)OC(=O)OCOP(=O)(CO[C@H](C)Cn1cnc2c(N)ncnc21)OCOC(=O)OC(C)C | IIIB | - | XTT / p24 | 7 d | 0.005 µM |

Blank or dashed fields: not listed here. ECn: concentration that inhibits the pathogen or its effect by n%.